Anti-infective test results gathered from many reports (values: NIAID ChemDB through PubChem).

MIC bound comes from a single tested concentration.

SMILES,read by,cell line,tested at,agent,test,strain or isolate,protein,endpoint,result
O=C(Nc1nnc(NCCc2ccccc2)s1)c1ccc(I)cc1,-,-,-,Human cytomegalovirus,target,-,Polymerase,IC50,>25 µM
Fc1ccccc1N1CCN(c2cncc(-c3ccoc3)n2)CC1,-,-,1 µM,Cytomegalovirus,target,-,UL97 kinase,inhibition,<50%
O=C(O)c1cccc2cccc(-c3c4ccc(=O)cc-4oc4cc(O)ccc34)c12,BACTEC,-,-,Mycobacterium tuberculosis,culture,H37Rv,-,MIC bound,>12.5 µg/mL
COc1ccc(/C=C/C(=O)c2ccc([N+](=O)[O-])cc2)cc1,-,-,12.5 µg/mL,Mycobacterium tuberculosis,culture,H37Rv,-,inhibition,62%
S=c1[nH]c(=S)[nH]c(=S)[nH]1,-,-,-,Mycobacterium tuberculosis,culture,H37Rv,-,MIC,100 µg/mL
COc1ccc(/C=C/C(=O)c2ccccn2)cc1,-,-,12.5 µg/mL,Mycobacterium tuberculosis,culture,-,-,inhibition,0%
COc1cc(C=O)cc(OC)c1OC,-,-,-,Mycobacterium tuberculosis,culture,H37Rv,-,MIC,>100 µg/mL
C#CC[C@@H](C(=O)N[C@H](/C=C/C(=O)OCC)C[C@@H]1CCNC1=O)n1cccc(NC(=O)c2cc(C)on2)c1=O,cytopathic effect / XTT,H1-HELA,0.204 µM,Rhinovirus,culture,Serotype 84,-,inhibition,90%
Oc1ccc2ccncc2c1,-,-,-,Mycobacterium tuberculosis,culture,H37Rv,-,MIC,25 µg/mL
COc1ccc(Br)c2c1C(=O)CC(c1ccccc1)O2,-,-,-,Mycobacterium tuberculosis,culture,H37Rv,-,EC50,<12.5 µg/mL
C[C@H](Cc1ccc(O)c(O)c1)[C@@H](C)Cc1ccc(O)c(O)c1,broth dilution,-,-,Candida tropicalis,culture,CCC 131-1997,-,MIC100,62.5 µg/mL
O=S(=O)(NCCNS(=O)(=O)c1ccccc1)c1ccccc1,-,-,-,Mycobacterium tuberculosis,culture,H37Rv,-,MIC,50 µg/mL
CCO/N=C/c1ccc(OCCC2CCN(c3ccc(C)nn3)CC2)cc1,neutral red,KB,-,Rhinovirus,culture,CH79 (ICAM-1 receptor group 38),-,EC50,0.024 µM
C=CC(N)=O,-,-,-,Mycobacterium tuberculosis,culture,H37Rv,-,MIC,>100 µg/mL
O=C(Nc1nnc(NC2CCN(Cc3ccccc3)CC2)s1)c1c(Cl)cccc1Cl,-,-,-,Human cytomegalovirus,target,-,Polymerase,IC50,<25 µM
Fc1ccccc1N1CCN(c2cncc(-c3csc4ccccc34)n2)CC1,-,-,-,Cytomegalovirus,target,-,UL97 kinase,IC50,<100 µM
CCCCCCCC/C=C/CCCCCCCC(=O)Nc1nnc(NC2CCN(Cc3ccccc3)CC2)s1,-,-,-,Human cytomegalovirus,target,-,Polymerase,IC50,>25 µM
Cc1ccccc1-c1cncc(N2CCN(c3ccccc3F)CC2)n1,-,-,10 µM,Cytomegalovirus,target,-,UL97 kinase,inhibition,>15%
Nc1nc(N)c(N)c(=O)[nH]1,-,-,-,Mycobacterium tuberculosis,culture,H37Rv,-,MIC,>100 µg/mL
O=C(Nc1nnc(NCCc2c[nH]c3ccccc23)s1)c1cc(F)cc(F)c1,-,-,-,Human cytomegalovirus,target,-,Polymerase,IC50,>25 µM
O=C1c2ccccc2OC(c2cccc(Br)c2)C1O,-,-,-,Mycobacterium tuberculosis,culture,-,-,EC50,<12.5 µg/mL
Nc1ccc2c(S(=O)(=O)O)cc(S(=O)(=O)O)cc2c1,-,-,-,Mycobacterium tuberculosis,culture,H37Rv,-,MIC,>100 µg/mL
O=C(/C=C/c1ccccc1Cl)Nc1nnc(NCCCN2CCCC2=O)s1,-,-,-,Human cytomegalovirus,target,-,Polymerase,IC50,>25 µM
NNc1ccccc1C(=O)O,-,-,-,Mycobacterium tuberculosis,culture,H37Rv,-,MIC,>100 µg/mL
Fc1ccc(N2CCN(c3cncc(-c4csc5ccccc45)n3)CC2)cc1,-,-,-,Cytomegalovirus,target,-,UL97 kinase,IC50,<10 µM
N#Cc1c(O)ccc(O)c1C#N,-,-,-,Mycobacterium tuberculosis,culture,H37Rv,-,MIC,>100 µg/mL
NC(Cc1cnc[nH]1)C(=O)NC(CO)C(=O)O,BACTEC,-,-,Mycobacterium tuberculosis,culture,H37Rv,-,MIC,≥12.8 µg/mL
CN(C)c1ccc(/C=C/C(=O)c2ccccn2)cc1,-,-,-,Mycobacterium tuberculosis,culture,H37Rv,-,EC50,>12.5 µg/mL
COc1ccc(N2CCN(c3cncc(-c4csc5ccccc45)n3)CC2)cc1OC,-,-,1 µM,Cytomegalovirus,target,-,UL97 kinase,inhibition,<50%
O=C(O)CCCCCCCCC(=O)O,-,-,-,Mycobacterium tuberculosis,culture,H37Rv,-,MIC,>100 µg/mL
O=C(Nc1nnc(NCCc2c[nH]c3ccccc23)s1)c1ccc(S(=O)(=O)F)cc1,-,-,-,Human cytomegalovirus,target,-,Polymerase,IC50,<25 µM
Oc1ccc(Br)cc1,-,-,-,Mycobacterium tuberculosis,culture,H37Rv,-,MIC,>100 µg/mL
COc1ccccc1N1CCN(c2cncc(-c3ccc(SC)cc3)n2)CC1,-,-,-,Cytomegalovirus,target,-,UL97 kinase,IC50,<10 µM
O=C(/C=C/c1ccccc1)c1cc(Br)ccc1O,-,-,12.5 µg/mL,Mycobacterium tuberculosis,culture,-,-,inhibition,68%
CCC1CN2C(=N1)c1ccccc1-c1cc([N+](=O)[O-])ccc12,resazurin,-,6.25 µg/mL,Mycobacterium tuberculosis,culture,H37Rv,-,inhibition,65%
Cc1c(Cc2c(C)n(C)n(-c3ccccc3)c2=O)c(=O)n(-c2ccccc2)n1C,-,-,-,Mycobacterium tuberculosis,culture,H37Rv,-,MIC,>100 µg/mL

Percent inhibition refers to the dose given; in toxicity tests it is the harm to the cells. Blank or dashed fields: not listed here. A number after MIC or MFC names an inhibition level or a share of isolates. ICn is the concentration giving n% inhibition. Rows are shuffled and stem from different studies. ECn: concentration that inhibits the pathogen or its effect by n%.